Results taken from US7868037B2 (PTC Therapeutics, Inc., priority 2004, dated 2011).

Test system: HCV-PV chimera

For CCn1c(C#Cc2ccc(NC(C)=O)cc2)c(C#N)c2ccc(OC)cc21 [Compound 138, N-[4-(3-cyano-1-ethyl-6-methoxy-1H-indol-2-ylethynyl)-phenyl]-acetamide], the IC50 was under 500 nM.
